Results of unrelated studies side by side (data: NIAID ChemDB).

Shared fields: tests in culture; species: Varicella zoster virus; method: cytopathic effect; read-out: EC50

Two numbers with a dash give a range or band.

compound | strain or isolate | cells | result
C[C@@]1(O)[C@@H](CO)O[C@@H](n2cnc3c(N)ncnc32)[C@@H]1O | - | VERO | >5 µg/mL
Cc1nc([N+](=O)[O-])c(N2CCCC2)n1Cc1ccc(Cl)cc1 | OKA (TK+) | HEL | 2 µg/mL
C#C[C@@H](O)C1=C[C@@H](n2cnc3c(N)ncnc32)[C@H](O)[C@@H]1O | 07/1 YS/R (TK-) | HEL | 35 µg/mL
CO[C@H](CO)[C@@H](O)CCn1cc(C)c(=O)[nH]c1=O | YS | HEL | >400 µg/mL
O=c1ccn([C@@H]2O[C@H](CO)[C@](O)(C(F)(F)F)[C@H]2O)c(=O)[nH]1 | - | VERO | >50 µg/mL
COC(=O)C(C)(C)NP(=O)(OC[C@H]1O[C@@H](n2cc(/C=C/Br)c(=O)[nH]c2=O)C[C@@H]1O)Oc1ccccc1 | YS | HEL | 11 µM
Nc1ccn(CC[C@H](O)CCO)c(=O)n1 | YS/R (TK-) | HEL | >400 µg/mL
CC(C)CS[C@@H]1C[C@H](n2cnc3c(N)ncnc32)[C@@H](O)[C@H]1O | YS | HEL | >200 µg/mL
C=C[C@@H](O)C1=C[C@@H](n2cnc3c(N)ncnc32)[C@H](O)[C@@H]1O | OKA YS | HEL | >50 µg/mL
CCO[C@@H]1[C@@H](OCC)[C@H](Cc2ccccc2)O[C@@H]2CO[C@@H](c3ccc(Cl)cc3)O[C@@H]12 | - | HFF | >100 µg/mL
Nc1cc(OC[C@H](CO)OCP(=O)(O)O)nc(N)n1 | OKA | HEL | 0.17 µM
CC1(C)[C@@H](CO)CC[C@@]1(C)Cn1cc(Br)c(=O)[nH]c1=O | OKA | HEL | >50 µg/mL
Nc1nc2ncn(/C=C3\C(F)C3(CO)CO)c2c(=O)[nH]1 | - | HFF | >300 µM
O=c1[nH]c(=O)n([C@H]2C[C@H](O)[C@@H](CO)O2)cc1/C=C/Br | YS | HEL | 0.01 µM
CO[C@H](CO)[C@@H](O)CCn1cnc2c(N)ncnc21 | YS/R (TK-) | HEL | >400 µg/mL
O=C(O)P(=O)(O)O | Oka acyclovir-resistant | HEL | 36 µM
CCc1cn([C@H]2C[C@H](O)[C@@H](CO)O2)c(=O)[nH]c1=O | ELLEN | HFF | >67 µM
Nc1nc(F)nc2c1ncn2[C@@H]1C=C(CO)[C@@H](O)[C@H]1O | OKA YS | HEL | 10 µg/mL
Nc1nc2c(ncn2COCCO)c(=O)[nH]1 | VEX411 | HEF | 0.4 µg/mL
CO[C@H](CO)[C@@H](O)CCn1cnc2c(=O)[nH]c(N)nc21 | YS/R (TK-) | HEL | >400 µg/mL
Cc1c(N)nc(N)nc1OCCOCP(=O)(O)O | OKA | HEL | 180 µM
Nc1nc2c(ncn2C[C@]2(CO)C[C@H]2CO)c(=O)[nH]1 | - | VERO | 1–10 µM
Nc1nc2c(ncn2/C=C2/CC2(CO)CO)c(=O)[nH]1 | - | HFF | >404 µM
Nc1nc2c(ncn2C=C2CC2CO)c(=O)[nH]1 | - | VERO | 10–100 µM
CN1C=CCC(C(=O)O[C@H]2C[C@H](n3cc(I)c(=O)[nH]c3=O)O[C@@H]2CO)=C1 | - | HFF | 35.8 µM
COC(C)c1cn([C@H]2C[C@H](O)[C@@H](CO)O2)c(=O)[nH]c1=O | ELLEN | HFF | 66.4 µM
C=Cc1cn([C@H]2C[C@H](O)[C@@H](CO)O2)c(=O)[nH]c1=O | - | HFF | 2.7 µM
O=c1[nH]c(=O)n([C@H]2C[C@H](O)[C@@H](CO)O2)cc1C(F)(F)F | VEX411 | HEF | 1 µg/mL
N#CCc1c(N)nc(N)n(CCOCP(=O)(O)O)c1=O | 07/1 (TK-) | HEL | 84 µM
Nc1ncnc2c1ncn2C(CF)CCCO | YS | HEL | >50 µg/mL
N#CCc1c(N)nc(N)nc1OCCOCP(=O)(O)O | OKA | HEL | 140 µM
Nc1nc2c(ncn2[C@H]2C=C[C@@H](CO)CC2)c(=O)[nH]1 | - | VERO | 1–10 µM
CN1C=CCC(C(=O)O[C@H]2C[C@H](n3cc(/C=C/I)c(=O)[nH]c3=O)O[C@@H]2CO)=C1 | - | HFF | 0.12 µM
Nc1ccn(C(CF)CCCO)c(=O)n1 | YS/R (TK-) | HEL | >50 µg/mL
NC1=NC2C(C=CN2CC(CO)CCO)C(=O)N1 | YS/R (TK-) | HEL | 11.7 µg/mL
CCc1cn([C@H]2C[C@H](O)[C@@H](CO)O2)c(=O)[nH]c1=O | VEX411 | HEF | 7 µg/mL

ECn: concentration that inhibits the pathogen or its effect by n%. An empty or dashed field is not shown. Rows are shuffled and stem from different studies.